Compound potency records, mixed from different reports. Data source: NIAID ChemDB in PubChem.

Shared fields: growth or infection tests; species: Mycobacterium avium complex; measure: MIC

a–b is a range or a potency band.

compound	strain or isolate	value
Clc1nc(Sc2ccncc2)c2[nH]cnc2n1	NJ211	>12.8 µg/mL
CCCCCCCCCCO/N=C1\[C@H](C)CC(C)(O)[C@H](O[C@@H]2O[C@H](C)C[C@H](N(C)C)[C@H]2O)[C@@H](C)[C@H](OC2C[C@@](C)(OC)[C@@H](O)[C@H](C)O2)[C@@H](C)C(=O)O[C@H](CC)[C@@](C)(O)[C@H](O)[C@H]1C	20096	6.25 µg/mL
Cc1c(CNc2ccc3ccccc3c2)cnc2nc(N)nc(N)c12	NJ211	≤0.13 µg/mL
CCCCNC(=O)OCCn1sc2ccccc2c1=S	ISS 486	4 µg/mL
Cc1ccc(C)c(Sc2ncccn2)c1	NJ211	>12.8 µg/mL
CC[C@H]1OC(=O)[C@H](C)[C@@H](OC2C[C@@](C)(OC)[C@@H](O)[C@H](C)O2)[C@H](C)[C@@H](O[C@@H]2O[C@H](C)C[C@H](N(C)C)[C@H]2O)C(C)(O)C[C@@H](C)/C(=N\OCCCOc2ccccc2)[C@H](C)[C@@H](O)[C@]1(C)O	20096	3.13 µg/mL
O=c1nc(SCc2cccnc2)c2[nH]cnc2[nH]1	NJ211	>12.8 µg/mL
CCCO/N=C1\[C@H](C)CC(C)(O)[C@H](O[C@@H]2O[C@H](C)C[C@H](N(C)C)[C@H]2O)[C@@H](C)[C@H](OC2C[C@@](C)(OC)[C@@H](O)[C@H](C)O2)[C@@H](C)C(=O)O[C@H](CC)[C@@](C)(O)[C@H](O)[C@H]1C	20039 (clarithromycin-susceptible)	1.56 µg/mL
C/C(=N\NC(N)=S)c1cccnc1	108	1 µg/mL
Nc1ccc(S(=O)(=O)c2ccc(N)cc2)cc1	DW14	32 µg/mL
COCc1c(CNc2ccc(OC)c(OC)c2)cnc2nc(N)nc(N)c12.O	NJ168	>13 µg/mL
CC[C@H]1OC(=O)[C@H](C)[C@@H](O[C@H]2C[C@@](C)(OC)[C@@H](O)[C@H](C)O2)[C@H](C)[C@@H](O[C@@H]2O[C@H](C)C[C@H](N(C)C)[C@H]2O)[C@](C)(OC)C[C@@H](C)C(=O)[C@H](C)[C@@H](O)[C@]1(C)O	N-951 (HIV+)	4 µg/mL
CC[C@H]1OC(=O)[C@H](C)[C@@H](OC2C[C@@](C)(OC)[C@@H](O)[C@H](C)O2)[C@H](C)[C@@H](O[C@@H]2O[C@H](C)C[C@H](N(C)C)[C@H]2O)C(C)(O)C[C@@H](C)/C(=N\OCCC2CCCCC2)[C@H](C)[C@@H](O)[C@]1(C)O	20039	3.13 µg/mL
CCNC(=O)OCCn1sc2ccccc2c1=S	ISS 486	4 µg/mL
CCO/N=C1\[C@H](C)CC(C)(O)[C@H](O[C@@H]2O[C@H](C)C[C@H](N(C)C)[C@H]2O)[C@@H](C)[C@H](OC2C[C@@](C)(OC)[C@@H](O)[C@H](C)O2)[C@@H](C)C(=O)O[C@H](CC)[C@@](C)(O)[C@H](O)[C@H]1C	20092	>50 µg/mL
Cc1ccc(C)c(Sc2ccncc2)c1	NJ211	>12.8 µg/mL
CC[C@H]1OC(=O)[C@H](C)[C@@H](OC2C[C@@](C)(OC)[C@@H](O)[C@H](C)O2)[C@H](C)[C@@H](O[C@@H]2O[C@H](C)C[C@H](N(C)C)[C@H]2O)C(C)(O)C[C@@H](C)/C(=N\OCCOc2ccccc2)[C@H](C)[C@@H](O)[C@]1(C)O	20096	25 µg/mL
Cc1c(CNc2ccccc2Cl)cnc2nc(N)nc(N)c12	NJ168	≤0.13 µg/mL
CC1(C)N=C(N)N=C(N)N1OCCCOc1cc(Cl)c(Cl)cc1Cl	DW8	1 µg/mL
CCCCCCCCCCCCO/N=C1\[C@H](C)CC(C)(O)[C@H](O[C@@H]2O[C@H](C)C[C@H](N(C)C)[C@H]2O)[C@@H](C)[C@H](O[C@H]2C[C@@](C)(OC)[C@@H](OC(C)=O)[C@H](C)O2)[C@@H](C)C(=O)O[C@H](CC)[C@@](C)(O)[C@H](O)[C@H]1C	20092 (clarithromycin-resistant)	6.25 µg/mL
O=c1c2ccccc2sn1CCO	AN1	32 µg/mL
CC[C@H]1OC(=O)[C@H](C)[C@@H](OC2C[C@@](C)(OC)[C@@H](OC(=O)C(C)C)[C@H](C)O2)[C@H](C)[C@@H](O[C@@H]2O[C@H](C)C[C@H](N(C)C)[C@H]2O)C(C)(O)C[C@@H](C)/C(=N\OCCCOc2ccccc2)[C@H](C)[C@@H](O)[C@]1(C)O	20096 (clarithromycin-resistant)	0.78 µg/mL
CO[C@H]1/C=C/O[C@@]2(C)Oc3c(C)c(O)c4c(O)c(c5c(c4c3C2=O)NC2(CCN(CC(C)C)CC2)N=5)=NC(=O)/C(C)=C\C=C\[C@H](C)[C@H](O)[C@@H](C)[C@@H](O)[C@@H](C)[C@H](OC(C)=O)[C@@H]1C	N-961 (HIV+)	0.8 µg/mL
Cc1c(CNc2ccc(Cl)cc2)cnc2nc(N)nc(N)c12	NJ168	≤0.13 µg/mL
CN[C@@H]1[C@H](O[C@H]2[C@H](O[C@H]3[C@H](O)[C@@H](O)[C@H](N=C(N)N)[C@@H](O)[C@@H]3N=C(N)N)O[C@@H](C)[C@]2(O)C=O)O[C@@H](CO)[C@H](O)[C@H]1O	N-265 (HIV-)	8 µg/mL
CCCCNC(=O)OCCN=c1ssc2ccccc12	AN2	4 µg/mL
NNC(=O)c1ccncc1	13542	2.5–3.2 µg/mL
CC[C@H]1OC(=O)[C@H](C)[C@@H](OC2C[C@@](C)(OC)[C@@H](O)[C@H](C)O2)[C@H](C)[C@@H](O[C@@H]2O[C@H](C)C[C@H](N(C)C)[C@H]2O)C(C)(O)C[C@@H](C)/C(=N\OCCCc2ccccc2)[C@H](C)[C@@H](O)[C@]1(C)O	20096 (clarithromycin-resistant)	12.5 µg/mL
CO[C@H]1/C=C/O[C@@]2(C)Oc3c(C)c(O)c4c(=O)c(c5oc6cc(N7CCN(CC(C)C)CC7)cc(=O)c6nc5c4c3=C2O)NC(=O)/C(C)=C\C=C\[C@H](C)[C@H](O)[C@@H](C)[C@@H](O)[C@@H](C)[C@H](OC(C)=O)[C@@H]1C	N-980 (HIV+)	0.0313 µg/mL
CCCCCCO/N=C1\[C@H](C)CC(C)(O)[C@H](O[C@@H]2O[C@H](C)C[C@H](N(C)C)[C@H]2O)[C@@H](C)[C@H](OC2C[C@@](C)(OC)[C@@H](O)[C@H](C)O2)[C@@H](C)C(=O)O[C@H](CC)[C@@](C)(O)[C@H](O)[C@H]1C	20092	25 µg/mL
CC1(C)N=C(N)N=C(N)N1OCCCOc1cc(Cl)c(Cl)cc1Cl	517	4 µg/mL
O=c1nc(SCc2ccncc2)c2[nH]cnc2[nH]1	NJ211	>12.8 µg/mL
CC[C@H]1OC(=O)[C@H](C)[C@@H](OC2C[C@@](C)(OC)[C@@H](O)[C@H](C)O2)[C@H](C)[C@@H](O[C@@H]2O[C@H](C)C[C@H](N(C)C)[C@H]2O)C(C)(O)C[C@@H](C)/C(=N\OCCN(C)c2ccccc2)[C@H](C)[C@@H](O)[C@]1(C)O	20039	1.56 µg/mL
Cc1c(CNc2cccc3ccccc23)cnc2nc(N)nc(N)c12	NJ211	≤0.13 µg/mL
CCNC(=O)OCCn1sc2ccccc2c1=O	AN2	>32 µg/mL

2 of the rows above, restated:

compound	strain or isolate	value
CCCCCCO/N=C1\[C@H](C)CC(C)(O)[C@H](O[C@@H]2O[C@H](C)C[C@H](N(C)C)[C@H]2O)[C@@H](C)[C@H](OC2C[C@@](C)(OC)[C@@H](O)[C@H](C)O2)[C@@H](C)C(=O)O[C@H](CC)[C@@](C)(O)[C@H](O)[C@H]1C	20092	25 µg/mL
O=c1c2ccccc2sn1CCO	AN1	32 µg/mL

Neighbouring rows are from separate reports.